Compound potency records, mixed from different reports. Data source: NIAID ChemDB in PubChem.

Shared fields: tests in culture; species: HIV-1; cells: MT-4; method: p24; read-out: EC95

An empty or dashed field is not shown. Neighbouring rows are from separate reports. ECn is the concentration giving n% inhibition of infection, replication or growth.

structure,strain,changes,result
COc1ccc(-n2c(=O)c(O)c3n(c2=O)CCN(Cc2ccc(F)cc2)C3=O)cn1,-,-,<10 µM
O=C(NC1CCC1)c1[nH]c(=O)c(O)c2c1CCN(Cc1ccc(F)cc1)C2=O,-,-,≤10 µM
CC1(C)c2nc(C(=O)NCc3ccc(F)cc3)c(O)c(=O)n2CCN1Cc1cscn1,-,-,<1 µM
NS(=O)(=O)c1ccc(NC(=O)COc2cccc(Cc3ccccc3)c2)c(Cl)c1,-,-,<20 µM
Cc1ccccc1-n1nnnc1SCC(=O)Nc1ccccc1Cl,-,-,<10 µM
CN(C)C(=O)c1cc(F)ccc1CNC(=O)c1nc(N(C)S(C)(=O)=O)c2cccnc2c1O,-,-,<5 µM
Cc1cc(C)c(-n2nnnc2SCC(=O)Nc2cccc(Br)n2)c(C)c1,-,-,<10 µM
CC(C)n1c(C(=O)N(C)C)c2c(c(O)c1=O)C(=O)N(Cc1ccc(F)c(Cl)c1)CC2,-,-,≤10 µM
CC(C)[C@H](NC(=O)OCc1ccccn1)C(=O)N[C@@H](Cc1ccccc1)[C@@H](O)C[C@H](Cc1ccccc1)NC(=O)OCc1cccnc1,NL4-3,PR-M46I,0.8 µM
CNCCC1CN(Cc2ccc(F)cc2)C(=O)c2c(O)c(=O)n(C(C)C)c(=O)n21,-,-,<10 µM
N#Cc1cc(Cl)cc(Oc2cc(OCc3nc4cccc(Cl)c4s3)ccc2Cl)c1,-,-,<20 µM
C[C@@H]1O[C@@H](CO)O[C@H]1n1cnc2c(=O)[nH]c(N)nc21,-,-,>10 µM
Cc1cnc(CN2CCn3c(nc(C(=O)NCc4ccc(F)cc4)c(O)c3=O)C2(C)C)o1,-,-,<1 µM
COC(=O)c1[nH]c(=O)c(O)c2c1CCN(Cc1ccc(F)cc1)C2=O,-,-,≤10 µM
Cc1cc(C)c(-n2nnnc2SCC(=O)Nc2cccc(Cl)c2C#N)c(C)c1,-,-,<10 µM
N#Cc1cc(Cl)cc(Oc2cc(OCc3[nH]nc4ncccc34)cc(F)c2Cl)c1,-,-,<20 µM
CN(c1nc(C(=O)NCc2ccc(F)cc2C(N)=O)c(O)c2ncccc12)S(C)(=O)=O,-,-,<5 µM
CC(C)NC(=O)c1[nH]c(=O)c(O)c2c1CCN(Cc1ccc(F)cc1)C2=O,-,-,≤10 µM
N#Cc1cccc(-n2nnnc2SCC(=O)Nc2ccccc2[N+](=O)[O-])c1,-,-,<10 µM
O=C1Cn2c(nc(C(=O)NCc3ccc(F)cc3)c(O)c2=O)CN1,-,-,<50 µM
C[C@@H]1O[C@H](CO)O[C@@H]1n1cnc2c(=O)[nH]c(N)nc21,-,-,>10 µM
O=C1c2c(O)c(=O)n(Cc3cscn3)c(=O)n2CCN1Cc1ccc(F)cc1,-,-,<10 µM
O=C(CSc1nnnn1-c1cccc2cnccc12)Nc1ccccc1Cl,-,-,<10 µM
CNC(=O)c1cc(F)ccc1CNC(=O)c1nc(N(C)S(C)(=O)=O)c2cccnc2c1O,-,-,<5 µM
C[C@@H]1O[C@H](CO)O[C@@H]1n1cnc2c(N)ncnc21,-,-,>10 µM
CC(=O)N1CCn2c(nc(C(=O)NCc3ccc(F)cc3)c(O)c2=O)C(N(C)Cc2ccccc2)C1,-,-,<1 µM
O=C1c2c(O)c(=O)n(CCCn3ccnc3)c(=O)n2CCN1Cc1ccc(F)cc1,-,-,<10 µM
CS(=O)(=O)N1CCc2nc(C(=O)NCc3ccc(F)cc3)c(O)c(=O)n2CC1,-,-,<50 µM
CN1CCn2c3c(c(O)c2C1=O)C(=O)N(Cc1ccc(F)cc1)CC3,-,-,≤10 µM
CNC(=O)c1[nH]c(=O)c(O)c2c1CCN(Cc1ccc(F)cc1)C2=O,-,-,≤10 µM
Cc1ccc(-n2nnnc2SCC(=O)Nc2ccccc2Cl)c([N+](=O)[O-])c1,-,-,<10 µM
CN(C)C1COCCn2c1nc(C(=O)NCc1ccc(F)cc1)c(O)c2=O,-,-,<50 µM
O=C(NC1CC1)c1[nH]c(=O)c(O)c2c1CCN(Cc1ccc(F)cc1)C2=O,-,-,≤10 µM
CN1CCn2c(nc(C(=O)NCc3ccc(F)cc3)c(O)c2=O)C(N(Cc2ccccc2)C(=O)C(=O)N(C)C)C1,-,-,<1 µM
CCS(=O)(=O)N(C)c1nc(C(=O)NCc2ccc(F)cc2C(=O)NC)c(O)c2ncccc12,-,-,<5 µM
N#Cc1cc(Cl)cc(Oc2cc(OCc3[nH]nc4nc(N5CC(N)C5)ccc34)ccc2Cl)c1,-,-,<20 µM
CN(C)C(=O)C(=O)N(C)C1COCCn2c1nc(C(=O)NCc1ccc(F)cc1)c(O)c2=O,-,-,<1 µM

3 of the rows above, restated:

structure,strain,changes,result
CNC(=O)c1[nH]c(=O)c(O)c2c1CCN(Cc1ccc(F)cc1)C2=O,-,-,≤10 µM
N#Cc1cccc(-n2nnnc2SCC(=O)Nc2ccccc2[N+](=O)[O-])c1,-,-,<10 µM
N#Cc1cc(Cl)cc(Oc2cc(OCc3[nH]nc4ncccc34)cc(F)c2Cl)c1,-,-,<20 µM